# Laboratory results reported in US20140287433.
# Target: VAMPtide (o-Abz/Dnp) (List Biological Laboratories, Inc.)
protein,measurement,value
TeNT (protein) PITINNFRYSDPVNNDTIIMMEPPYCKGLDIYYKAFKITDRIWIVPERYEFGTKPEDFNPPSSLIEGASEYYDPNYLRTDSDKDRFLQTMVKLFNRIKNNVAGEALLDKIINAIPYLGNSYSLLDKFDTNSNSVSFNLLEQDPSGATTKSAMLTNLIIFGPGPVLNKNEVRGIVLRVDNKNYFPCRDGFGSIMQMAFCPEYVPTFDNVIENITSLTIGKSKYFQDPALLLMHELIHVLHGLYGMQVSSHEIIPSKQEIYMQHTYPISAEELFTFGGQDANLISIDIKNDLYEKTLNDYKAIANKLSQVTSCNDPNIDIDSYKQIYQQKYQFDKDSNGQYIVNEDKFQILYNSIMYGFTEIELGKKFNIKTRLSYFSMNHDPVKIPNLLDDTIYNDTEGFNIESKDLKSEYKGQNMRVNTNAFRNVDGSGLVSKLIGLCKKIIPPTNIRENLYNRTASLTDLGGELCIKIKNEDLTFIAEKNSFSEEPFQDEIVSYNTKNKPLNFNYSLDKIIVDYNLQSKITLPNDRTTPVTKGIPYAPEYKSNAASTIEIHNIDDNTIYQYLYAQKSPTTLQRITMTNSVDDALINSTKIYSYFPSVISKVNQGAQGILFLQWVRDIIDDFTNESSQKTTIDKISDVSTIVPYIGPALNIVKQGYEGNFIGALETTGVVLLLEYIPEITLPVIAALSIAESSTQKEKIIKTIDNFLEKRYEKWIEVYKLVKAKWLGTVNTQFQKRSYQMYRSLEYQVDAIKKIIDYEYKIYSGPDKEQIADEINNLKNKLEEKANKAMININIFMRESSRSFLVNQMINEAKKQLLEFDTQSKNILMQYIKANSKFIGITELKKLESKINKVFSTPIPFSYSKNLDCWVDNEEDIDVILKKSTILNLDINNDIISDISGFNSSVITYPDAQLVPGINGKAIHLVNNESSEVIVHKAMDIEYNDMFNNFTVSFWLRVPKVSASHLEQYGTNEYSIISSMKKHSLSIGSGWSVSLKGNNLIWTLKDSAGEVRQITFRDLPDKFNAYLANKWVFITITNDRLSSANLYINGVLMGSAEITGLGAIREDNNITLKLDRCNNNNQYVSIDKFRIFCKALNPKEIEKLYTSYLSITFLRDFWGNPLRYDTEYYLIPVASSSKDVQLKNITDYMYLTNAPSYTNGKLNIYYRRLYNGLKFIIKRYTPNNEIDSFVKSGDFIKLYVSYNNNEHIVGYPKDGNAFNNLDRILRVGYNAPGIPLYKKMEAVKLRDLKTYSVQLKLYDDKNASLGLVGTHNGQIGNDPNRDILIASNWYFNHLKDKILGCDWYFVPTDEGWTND,cleavage activity in the modified cleavage buffer,the cleavage reaction did neither work for TeNT
Proteinase K (Sigma-Aldrich) (protein) AAQTNAPWGLARISSTSPGTSTYYYDESAGQGSCVYVIDTGIEASHPEFEGRAQMVKTYYYSSRDGNGHGTHCAGTVGSRTYGVAKKTQLFGVKVLDDNGSGQYSTIIAGMDFVASDKNNRNCPKGVVASLSLGGGYSSSVNSAAARLQSSGVMVAVAAGNNNADARNYSPASEPSVCTVGASDRYDRRSSFSNYGSVLDIFGPGTSILSTWIGGSTRSISGTSMATPHVAGLAAYLMTLGKTTAASACRYIADTANKGDLSNIPFGTVNLLAYNNYQA,"cleavage of 200 µM VAMPtide by 100 µg/mL Proteinase K, ELISA and fluorescence",Proteinase K successfully cleaved VAMPtide
isolated BoNT/B LC (residues 1-441) (protein) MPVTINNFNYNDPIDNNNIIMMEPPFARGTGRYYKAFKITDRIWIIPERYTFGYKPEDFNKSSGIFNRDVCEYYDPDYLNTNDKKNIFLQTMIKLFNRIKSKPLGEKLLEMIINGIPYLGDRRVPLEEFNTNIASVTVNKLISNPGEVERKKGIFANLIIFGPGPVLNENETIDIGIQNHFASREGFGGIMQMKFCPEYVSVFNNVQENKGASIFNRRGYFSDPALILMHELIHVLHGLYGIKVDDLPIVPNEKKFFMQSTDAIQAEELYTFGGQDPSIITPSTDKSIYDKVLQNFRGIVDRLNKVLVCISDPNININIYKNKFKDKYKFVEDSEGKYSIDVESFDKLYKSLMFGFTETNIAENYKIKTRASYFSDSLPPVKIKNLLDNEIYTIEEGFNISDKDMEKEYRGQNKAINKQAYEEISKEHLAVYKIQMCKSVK,"cleavage activity in the modified cleavage buffer (2 mM TCEP, no Tween-20)",isolated BoNT/B LC did not exhibit any cleavage activity under these conditions
